Test results published in US6355610B2 (priority 1998, dated 2002).

Chains of the proteins cited; added tags and fusions are not shown. Residues count along the entry.
UniProt P04273, 23-231 limits assumed: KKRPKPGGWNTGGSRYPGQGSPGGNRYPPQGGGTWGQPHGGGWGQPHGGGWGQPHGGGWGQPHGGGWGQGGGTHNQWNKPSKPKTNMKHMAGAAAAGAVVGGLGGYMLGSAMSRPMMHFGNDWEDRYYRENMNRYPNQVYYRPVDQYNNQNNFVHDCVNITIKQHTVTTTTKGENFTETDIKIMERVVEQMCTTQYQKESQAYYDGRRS

Biological target: 35S-HaPrPsen (Mesocricetus auratus, UniProt P04273)
Assay type: biochemical, hamster

CSCC[C@H](NC(=O)[C@H](C)NC(=O)[C@H](CO)NC(=O)CNC(=O)[C@H](CC(C)C)NC(=O)[C@H](CCSC)NC(=O)[C@H](Cc1ccc(O)cc1)NC(=O)CNC(=O)CNC(=O)[C@H](CC(C)C)NC(=O)CNC(=O)CNC(=O)[C@@H](NC(=O)[C@@H](NC(=O)[C@H](C)NC(=O)CNC(=O)[C@H](C)NC(=O)[C@H](C)NC(=O)[C@H](C)NC(=O)[C@H](C)NC(=O)CNC(=O)[C@H](C)N)C(C)C)C(C)C)C(=O)N[C@@H](CO)C(=O)N[C@@H](CCCNC(=N)N)C(=O)N1CCC[C@H]1C(=O)N[C@@H](CCSC)C(=O)N[C@@H](CCSC)C(=O)N[C@@H](Cc1c[nH]cn1)C(=O)N[C@@H](Cc1ccccc1)C(=O)O [P113-141]
peptide induced aggregation of 35S-HaPrPsen: caused aggregation and pelleting of 35S-HaPrPsen
